Data as given in PubChem BioAssay AID1117264 (The Scripps Research Institute Molecular Screening Center, 2014).
Only a part is listed here, and it is no random draw. Activity calls are given as the source filed them.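 How the source made its calls: active means inhibition above the mean inhibition across all screened compounds plus 3 SD (cut at about 11% in these data); inactive means the rest.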

The chains behind the UniProt entries cited, without tags or fusion partners.
UniProt P86926, whole entry: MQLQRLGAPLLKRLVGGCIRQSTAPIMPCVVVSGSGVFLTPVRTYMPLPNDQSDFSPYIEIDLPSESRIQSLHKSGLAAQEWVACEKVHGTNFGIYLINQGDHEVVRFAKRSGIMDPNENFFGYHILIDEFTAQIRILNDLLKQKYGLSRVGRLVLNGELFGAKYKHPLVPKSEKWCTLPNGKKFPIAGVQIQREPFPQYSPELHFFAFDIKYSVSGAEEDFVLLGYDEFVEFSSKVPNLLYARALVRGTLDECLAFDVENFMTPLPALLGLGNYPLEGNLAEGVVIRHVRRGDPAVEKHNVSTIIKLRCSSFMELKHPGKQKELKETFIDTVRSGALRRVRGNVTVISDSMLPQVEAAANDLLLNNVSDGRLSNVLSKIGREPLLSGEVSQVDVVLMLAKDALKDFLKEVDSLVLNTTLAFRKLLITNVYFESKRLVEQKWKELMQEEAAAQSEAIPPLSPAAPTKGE

What follows are molecules tested against RNA-editing ligase 1, mitochondrial (Trypanosoma brucei brucei) (UniProt P86926) (assay: TbREL1 RNA ligase inhibitors, primary screen, biochemical, FRET fluorescence (AID 1117264;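 further: 0% = plate median of test wells and 100% = NSC42067 control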)). Details: TbREL1 RNA ligation, at 9.66 µM, active compounds read high.

| SMILES | inhibition |
| --- | --- |
| O=C(NCC1(N2CCCCC2)CCCCC1)c1ccc(=O)[nH]c1 | inactive: 5.21% |
| O=c1[nH]c2ccccc2n1C1CCN(C(c2cc3ccccc3o2)c2nnnn2C2CCCCC2)CC1 (stereo not drawn) | inactive: -1.64% |
| CCCCn1nnnc1C(c1ccc(OC)cc1)N1CCC(n2c(=O)[nH]c3ccccc32)CC1 (stereo not drawn) | inactive: 2.01% |
| O=c1[nH]c2ccccc2n1C1CCN(C(c2ccccc2)c2nnnn2C2CCCCC2)CC1 (stereo not drawn) | inactive: 4.88% |
| O=c1[nH]c2ccccc2n1C1CCN(C(c2cccc3ccccc23)c2nnnn2C2CCCC2)CC1 (stereo not drawn) | inactive: -0.98% |
| CC(C)(C)n1nnnc1C(c1ccccc1OC(F)(F)F)N1CCC(n2c(=O)[nH]c3ccccc32)CC1 (stereo not drawn) | inactive: 0.27% |
| CSc1ccc(C(=O)NCC2(N3CCOCC3)CCCCC2)cc1 | inactive: -4.31% |
| O=C(NCC1(N2CCOCC2)CCCCC1)c1cc(=O)[nH]c2ccccc12 | inactive: 6.26% |
| CCCCn1nnnc1C(c1cccc2ccccc12)N1CCC(n2c(=O)[nH]c3ccccc32)CC1 (stereo not drawn) | inactive: -2.72% |
| COC(=O)C1(Nc2ccccc2)CCN(Cc2ccccc2)CC1 | inactive: -0.55% |
| CN(C)c1cccc(C(=O)NCC2(N3CCCCC3)CCCCC2)c1 | inactive: 2.85% |
| O=C(NCC1(N2CCOCC2)CCCCC1)c1cc(F)c(F)cc1Cl | inactive: -0.7% |
| O=C(NCC1(N2CCCCC2)CCCCC1)c1cncc(Br)c1 | inactive: 5.12% |
| COc1cc(C(=O)NCC2(N3CCOCC3)CCCCC2)cc(OC)c1C | inactive: 4.1% |
| NC(=O)C1(Nc2ccccc2)CCN(Cc2ccccc2)CC1 | inactive: -1.1% |
| N/C(=N\O)c1c(N)no[n+]1[O-] | inactive: 0.88% |
| N#Cc1ccc(C(=O)NCC2(N3CCCCC3)CCCCC2)cc1 | active: 13.5% |
| O=c1[nH]c2ccccc2n1C1CCN(C(c2ccnc3ccccc23)c2nnnn2C2CCCCC2)CC1 (stereo not drawn) | inactive: 0.76% |
| Cc1ccc(C(=O)NCC2(N3CCCCC3)CCCCC2)o1 | inactive: -1.13% |
| CC(C)(C)n1nnnc1C(c1ccnc2ccccc12)N1CCC(n2c(=O)[nH]c3ccccc32)CC1 (stereo not drawn) | inactive: -0.02% |
| CCOc1ncccc1C(=O)NCC1(N2CCOCC2)CCCCC1 | inactive: -1.02% |
| CC(C)(C)OC(=O)N1CCC(Nc2ccccc2)CC1 | inactive: -3.77% |
| O=c1[nH]c2ccccc2n1C1CCN(C(c2cc3ccccc3o2)c2nnnn2C2CCCC2)CC1 (stereo not drawn) | inactive: 6.71% |
